Compound potency records, mixed from different reports. Data source: NIAID ChemDB in PubChem.

All rows: whole-cell or culture tests; species: Mycobacterium avium; read-out: MIC

Conditions beyond the fields shown may differ between rows.

compound,conditions,strain,value
Cc1c(-c2nc3cc(C(C)(C)C)cc(C(C)(C)C)c3o2)[nH]c2ccccc12,,MY330/88,250 µM
CCOC(=O)C(=O)N=Nc1c(S)n(CC)c2ccccc12,,CNCTC MY80/72,>1000 µM
N/C(=N\N=C\c1ccncc1)c1ccccn1,,,>16 µg/mL
Cc1c(CN2CCSCC2)cc(-c2ccccc2Cl)n1-c1ccccc1,,103317,>16 µg/mL
CCCCCCOc1ccccc1NC(=O)OCCN1CCCCC1,,MY330/88,62.5 µM
Cc1c(CN2CCN(C)CC2)cc(-c2ccccc2)n1-c1ccccc1Cl,,103317,>16 µg/mL
C(=C\c1ccccc1)/CNc1ccc(CN2CCOCC2)cc1,,103317,8 µg/mL
Cc1c(CN2CCSCC2)cc(-c2ccccc2)n1-c1ccccc1Cl,,103317,>16 µg/mL
O=[N+]([O-])c1ccc(Sc2nc3c(Br)cc(Br)cc3[nH]2)cc1,,MY330/88,8 µM
CC(C)(C)c1ccc(COC(Cn2ccnc2)c2ccc(Cl)cc2)cc1,,103317,2.71 µM
Cc1c(CN2CCSCC2)cc(-c2ccccc2)n1-c1cccc2ccccc12,,103317,>16 µg/mL
CN1CCN(Cc2cccc(N=C/C=C/c3ccccc3)c2)CC1,,103317,32 µg/mL
O=C(c1ccncc1)N(/N=C/c1ccc(Cl)cc1Cl)C(=O)c1cnccn1,,ATCC49601,>16 µg/mL
O=C1C(=S)N(c2ccccc2)c2ccccc21,,CNCTC D5/93,63 µM
CCC1Cn2cc([N+](=O)[O-])nc2O1,,3 isolates,>250 µg/mL
COc1ccc2oc(=O)n(-c3ccc(C)cc3)c(=S)c2c1,21 d,MY330/88,32 µM
C/C=C/CCC(C)CC(=O)O,,,>1000 µM
Clc1ccc(/C(Cn2ccnc2)=N\OC/C=C/c2ccccc2)c(Cl)c1,,103317,20.7 µM
CCOc1c(N2CCC(C(C)(C)N)C2)c(F)cc2c(=O)c(C(=O)O)cn(C3CC3)c12,,101,1 µg/mL
CCSSC(SC)C(N)=O,,225,1000 µM
COc1ccc2oc(=S)n(-c3ccc(C(F)(F)F)cc3)c(=S)c2c1,21 d,MY330/88,125 µM
C(=C\c1ccccc1)/CNc1ccc(Cn2ccnc2)cc1,,103317,1 µg/mL
Brc1ccc(CSc2ncn[nH]2)cc1,,MY330/88,500 µM
O=[N+]([O-])c1ccc(Sc2nc3c(Br)cc(Br)cc3[nH]2)c([N+](=O)[O-])c1,,MY330/88,1000 µM
CCCCCCCCC(C(=O)O)c1ccccc1,,,>100 µM
N/C(=N\N=C\c1cc2ccccc2s1)c1cnccn1,,,>16 µg/mL
CCCCCOc1cccc(NC(=O)OCCN2CCCCC2)c1,,MY330/88,62.5 µM
Ic1ccc(-n2nnnc2SSc2nnnn2-c2ccc(I)cc2)cc1,,80/72,>1000 µM
C(=C\c1ccccc1)/CNc1ccccc1Cn1ccnc1,,103317,1 µg/mL
O=C(c1ccncc1)N(NCc1cccc([N+](=O)[O-])c1)C(=O)c1cnccn1,,ATCC49601,>16 µg/mL
O/N=C(\Cn1ccnc1)c1ccccc1,,103317,79.5 µM
CCCCCCCCCCCC(CC(=O)O)c1ccccc1,,,2.5 µM
O=[N+]([O-])c1ccc(Sc2nc3c(Br)c(Br)c(Br)c(Br)c3[nH]2)c([N+](=O)[O-])c1,,MY330/88,62.5 µM
CCCC(C/C(C)=C/CC[C@H](C)CCO)C(=O)O,,,62.5 µM
Fc1ccc(-n2nnnc2SSc2nnnn2-c2ccc(F)cc2)cc1,,80/72,>1000 µM
COC(=O)/C=C/C(=O)c1ccc(C(C)(C)C)cc1,,,16 µg/mL
NC(=S)N=Nc1c(S)n(-c2ccccc2)c2ccccc12,,CNCTC D5/93,63 µM
CCCCC(C/C(C)=C/CC[C@H](C)CCO)C(=O)O,,,31.25 µM
COc1ccc2oc(=O)n(-c3ccc(F)cc3)c(=S)c2c1,14 d,MY330/88,32 µM
Cc1ccc(-n2nnnc2SSc2nnnn2-c2ccc(C)cc2)cc1,,80/72,>1000 µM
CC(C)(C)c1cc(C(C)(C)C)c2nc(C(=O)NC(Cc3ccc(O)cc3)C(=O)O)oc2c1,,MY330/88,1000 µM
S=c1oc2ccc(Br)cc2c(=S)n1-c1ccc(Cl)c(Cl)c1,21 d,MY330/88,62.5 µM
Fc1ccc(CSc2ncn[nH]2)cc1F,,MY330/88,500 µM
Cc1c(CN2CCN(C)CC2)cc(-c2ccccc2)n1-c1ccccc1,,103317,32 µg/mL
CC(C)(C)n1cc(C(=O)O)c(=O)c2cc(F)c(N3CCNCC3)nc21,,RG2,2 µg/mL
NC(=S)c1ccc(CSc2ncn[nH]2)cc1,,MY330/88,250 µM
CCCCCCCCCOc1cccc(NC(=O)OCCN2CCCCC2)c1,,MY330/88,16 µM
C/C1=C\[C@H]2OC(=O)[C@@H](C)[C@@H]2CCC2(C)O[C@@H]2CC1,,,128 µg/mL
CC(=O)Nc1ccc(/C=N/NC(N)=S)cc1,,168,0.08 µg/mL
O=[N+]([O-])c1ccc(Sc2nc3c(Cl)cc(Cl)cc3[nH]2)cc1,,MY330/88,4 µM
CC(=O)/C(N=Nc1ccc(C(=O)N/N=C/c2ccc([N+](=O)[O-])o2)cc1)=C(/O)c1ccccc1,,,>12.5 µg/mL
c1ccc(C(Cn2ccnc2)NCc2cccc3ccccc23)cc1,,103317,24.4 µM
Cc1ccc2occ(/C=N/NC(=O)c3cc(O)c(O)c(O)c3)c(=O)c2c1,,MY 80/72,>100 µg/mL
CCCCCCCCCCOc1ccc(NC(=O)OCCN2CCCCC2)cc1,,MY330/88,8 µM
Cc1c(CN2CCSCC2)cc(-c2cccc3ccccc23)n1-c1ccccc1,,103317,>16 µg/mL
CCCCCCCCCC(CC(=O)O)c1ccccc1,,,5 µM
FC(F)(F)C(F)(F)c1nc2cc(Cl)c(Cl)cc2[nH]1,,MY330/88,16 µM
N/C(=N\N=C\c1ccccn1)c1ccccn1,,,>16 µg/mL
O=C(N/N=C/c1coc2ccccc2c1=O)c1ccncc1,,MY 80/72,>100 µg/mL
C(/C=C/c1ccccc1)=Nc1ccc(Cn2ccnc2)cc1,,103317,2 µg/mL
CC[C@H]1OC(=O)[C@H](C)[C@@H](O[C@H]2C[C@@](C)(OC)[C@@H](O)[C@H](C)O2)[C@H](C)[C@@H](O[C@@H]2O[C@H](C)C[C@H](N(C)C)[C@H]2O)[C@](C)(OC)C[C@@H](C)C(=O)[C@H](C)[C@@H](O)[C@]1(C)O,,,2 µg/mL
CC1(C)Nc2ccc(Cl)cc2C(=S)N1c1cccc(Cl)c1,,MY330/88,125 µg/mL
C=C1C(=O)O[C@H]2[C@H]1CC/C(C)=C/CC[C@@]1(C)O[C@@H]21,,,64 µg/mL
Fc1cccc(CSc2ncn[nH]2)c1,,MY330/88,250 µM
CC(C)(C)c1cc(C(C)(C)C)c2oc(Cc3ccc(O)cc3)nc2c1,,MY330/88,500 µM
N#CCC(=O)N/N=C/c1coc2ccccc2c1=O,,MY 80/72,>50 µg/mL
CN1CCN(c2ccc(NCc3ccc(Cl)cc3)cc2)CC1,,103317,97.8 µM
CC(C)c1ccc(N2C(=S)c3cc(Cl)ccc3NC2(C)C)cc1,,MY330/88,>250 µg/mL
COc1ccc(CNN(C(=O)c2ccncc2)C(=O)c2cnccn2)cc1,,ATCC49601,>16 µg/mL
COc1ccc(-n2c(C)nc3ccc(Cl)cc3c2=S)cc1,,MY330/88,62.5 µg/mL
CC1=CC[C@@H](O)[C@]2(C)CC[C@@H]3[C@H](OC(=O)[C@H]3C)[C@@H]12,,,>128 µg/mL
O=[N+]([O-])c1cc(Sc2nc3c(Cl)cc(Cl)cc3[nH]2)cc([N+](=O)[O-])c1,,MY330/88,62.5 µM
O=C1C(=S)N(Cc2ccccc2)c2ccccc21,,CNCTC D5/93,500 µM
O=C(c1ccncc1)N(/N=C/c1cccc([N+](=O)[O-])c1)C(=O)c1cnccn1,,ATCC49601,>16 µg/mL
Cc1ccc2oc(=O)n(-c3ccc(Br)cc3)c(=S)c2c1,14 d,MY330/88,4 µM
CC1=CCC[C@@]2(C)O[C@H]2[C@H]2OC(=O)[C@@H](C)[C@@H]2CC1,,,128 µg/mL
CCNC1Oc2cc(Cl)ccc2C(=O)/C1=C/Nc1ccc2[nH]c(=S)sc2c1,,MY 80/72,5 µg/mL
Clc1ccc(/C(Cn2ccnc2)=N\OCc2cccc3ccccc23)cc1,,103317,21.3 µM
C(=C\c1ccccc1)/CNc1ccccc1CN1CCOCC1,,103317,>64 µg/mL
CCCCCOc1ccc(NC(=O)OCCN2CCCCC2)cc1,,MY330/88,62.5 µM
O=[N+]([O-])c1cccc(CSc2ncn[nH]2)c1,,MY330/88,1000 µM
O=C(N/N=C/c1coc2ccc(Cl)cc2c1=O)c1ccncc1,,MY 80/72,>100 µg/mL
CCCCCCOc1cccc(NC(=O)OC(COCC)CN2CCCCC2)c1,,MY330/88,250 µM
CCCCCCCOc1cccc(NC(=O)OCCN(C)C)c1,,MY330/88,16 µM
CN1CCN(c2ccc(NCc3ccc(-c4ccccc4)cc3)cc2)CC1,,103317,10.8 µM
CCCOc1cccc(NC(=O)OCCN2CCCCC2)c1,,MY330/88,500 µM
O=C(c1ccncc1)N(/N=C/c1ccccc1Cl)C(=O)c1cnccn1,,ATCC49601,>16 µg/mL
c1ccc(/C(Cn2ccnc2)=N\OCc2ccc(-c3ccccc3)cc2)cc1,,103317,21.7 µM

A second listing of 6 rows from above:

Cc1c(-c2nc3cc(C(C)(C)C)cc(C(C)(C)C)c3o2)[nH]c2ccccc12 ; strain: MY330/88 ; value: 250 µM
c1ccc(/C(Cn2ccnc2)=N\OCc2ccc(-c3ccccc3)cc2)cc1 ; strain: 103317 ; value: 21.7 µM
CC[C@H]1OC(=O)[C@H](C)[C@@H](O[C@H]2C[C@@](C)(OC)[C@@H](O)[C@H](C)O2)[C@H](C)[C@@H](O[C@@H]2O[C@H](C)C[C@H](N(C)C)[C@H]2O)[C@](C)(OC)C[C@@H](C)C(=O)[C@H](C)[C@@H](O)[C@]1(C)O ; value: 2 µg/mL
N/C(=N\N=C\c1ccncc1)c1ccccn1 ; value: >16 µg/mL
NC(=S)N=Nc1c(S)n(-c2ccccc2)c2ccccc12 ; strain: CNCTC D5/93 ; value: 63 µM
CCCCC(C/C(C)=C/CC[C@H](C)CCO)C(=O)O ; value: 31.25 µM

Blank or dashed fields: not listed here.